{
  "source": "paper PMC9517163",
  "target": "SARS-CoV-2 receptor-binding domain (RBD), prototype (SARS-CoV-2) (UniProt P0DTC2)",
  "assay": "SPR",
  "conditions": "Fc fusion",
  "note": "pKd: −log10 of the molar value.",
  "data": [
    {"substance": "hippopotamus ACE2, mFc-tagged", "values": [
      {"measurement": "pKd", "value": 7.18}
    ]}
  ]
}
